Laboratory results reported in US20240109955A1 (published 2024).

How the values were obtained:
Assay in all cases: cell-based or functional assay
[1] = target: SARS-CoV-2 spike protein, Omicron sublineage BA.1.1 (R346K) (SARS-CoV-2, UniProt P0DTC2 14-1273)
[2] = target: SARS-CoV-2 spike protein, Omicron variant (B.1.1.529) (SARS-CoV-2, UniProt P0DTC2 14-1273)
[3] = target: SARS-CoV-2 spike (S) protein, Omicron variant B.1.1.529 (SARS-CoV-2, UniProt P0DTC2 14-1273)
[4] = target: SARS-CoV-2 spike (S) protein, Omicron sublineage BA.1.1 (R346K) (SARS-CoV-2, UniProt P0DTC2 14-1273)

| Binder | IC50, pseudovirus neutralization [1] [nM] | IC80, pseudovirus neutralization [1] [nM] | IC50, pseudovirus neutralization [2] [nM] | IC80, pseudovirus neutralization [2] [nM] | IC50, pseudovirus neutralization [3] [nM] | IC80, pseudovirus neutralization [3] [nM] | IC50, pseudovirus neutralization [4] [nM] | IC80, pseudovirus neutralization [4] [nM] |
| --- | --- | --- | --- | --- | --- | --- | --- | --- |
| MX829 (bispecific antibody) DIQMTQSPSSVSASVGDRVIITCRASQGISSWLAWYQQKPGKAPKVLIYDASSLQSGVPSRFSGSGYGTDFTLTISSLQPEDSATYYCQQAKSFPITFGQGTRLEIKGGSSGEIVLTQSPGTLSLSPGERATLSCRASQSVSSSYLAWYQQKPGQAPRLLIYSASSRATGIPDRFSGSGSGTDFTLTISRLEPEDFAVYFCQQYVGLTGWTFGQGTKVEIKGGGGSGGSGSGGGGSASGSGQMQLVQSGPEVKKPGTSVKVSCKASGFTFTSSAVQWVRQRQRLEWIGWIVVGSGNTNYAQKFQERVTITRDMSTSTAYMELSSLRSEDTAVYYCAAPNCSNVVCYDGFDIWGQGTMVTVSSGGSSGQVQLVESGGGVVQPGRSLRLSCAASGFTFSSYAFHWVRQAPGKGLEWVAVISYDGSNQYYADSVKGRFTISRDNSKNTLYLQMNSLRADDTAVYYCARDLAIAVAGTWHYYNGMDVWGQGTTVTVSSASGGSGDKTHTCPPCPAPELLGGPSVFLFPPKPKDTLMISRTPEVTCVVVDVSHEDPEVKFNWYVDGVEVHNAKTKPREEQYNSYVVSVLTVLHQDWLNGKEYKCKVSNKALPAPIEKTISKAKGQPREPQVYTLPPSRDELTKNQVSLTCLVKGFYPSDIAVEWESNGQPENNYKTTPPVLDSDGSFFKKLTVDKSRWQQGNVFSCSVLHEALHSHYTQKSLSLSPG | 6.72 | 35.4 | 34.8 | 70.1 | – | – | – | – |
| MX830 (bispecific antibody) QTVVTQEPSFSVSPGGTVTLTCGLSSGSVSTAYFPSWYQQTPGQAPRTLIYGTNTRSSGVPDRFSGSILGNKAALTITGAQADDESDYYCVLYMGRGIVVFGGGTKLTVLGGSSGEIVLTQSPGTLSLSPGERATLSCRASQSVSSSYLAWYQQKPGQAPRLLIYSASSRATGIPDRFSGSGSGTDFTLTISRLEPEDFAVYFCQQYGGLTGWTFGQGTKVEIKGGGGSGGSGSGGGGSASGSGQMQLVQSGPEVKKPGTSVKVSCKASGFTFTSSAVQWVRQRQRLEWIGWIVVGSGNTNYAQKFQERVTITRDMSTSTAYMELSSLRSEDTAVYYCAAPNCSNVVCYDGFDIWGQGTMVTVSSGGSSGQVQLVESGGGVVQPGRSLRLSCAASGFTLSSYGMHWVRQAPGKGLEWVAVISYDGSNKYYVDSVKGRFTISRDNSKNTLYLQMNSLRAEDTAVYYCRWAYWELLPDYYYGMDVWGQGTTVTVSSASGGSGDKTHTCPPCPAPELLGGPSVFLFPPKPKDTLMISRTPEVTCVVVDVSHEDPEVKFNWYVDGVEVHNAKTKPREEQYNSYVVSVLTVLHQDWLNGKEYKCKVSNKALPAPIEKTISKAKGQPREPQVYTLPPSRDELTKNQVSLTCLVKGFYPSDIAVEWESNGQPENNYKTTPPVLDSDGSFFKKLTVDKSRWQQGNVFSCSVLHEALHSHYTQKSLSLSPG | 10.4 | 11.5 | 11 | 23.5 | – | – | – | – |
| MX831 (bispecific antibody) DIQMTQSPSSVSASVGDRVIITCRASQGISSWLAWYQQKPGKAPKVLIYDASSLQSGVPSRFSGSGYGTDFTLTISSLQPEDSATYYCQQAKSFPITFGQGTRLEIKGGSSGEIVLTQSPGTLSLSPGERATLSCRASQSVSSSYLAWYQQKPGQAPRLLIYSASSRATGIPDRFSGSGSGTDFTLTISRLEPEDFAVYFCQQYGGLTGWTFGQGTKVEIKGGGGSGGSGSGGGGSASGSGQMQLVQSGPEVKKPGTSVKVSCKASGFTFTSSAVQWVRQRQRLEWIGWIVVGSGNTNYAQKFQERVTITRDMSTSTAYMELSSLRSEDTAVYYCAAPNCSNVVCYDGFDIWGQGTMVTVSSGGSSGQVQLVESGGGVVQPGRSLRLSCAASGFTFSSYAFHWVRQAPGKGLEWVAVISYDGSNQYYADSVKGRFTISRDNSKNTLYLQMNSLRADDTAVYYCARDLAIAVAGTWHYYNGMDVWGQGTTVTVSSASGGSGDKTHTCPPCPAPELLGGPSVFLFPPKPKDTLMISRTPEVTCVVVDVSHEDPEVKFNWYVDGVEVHNAKTKPREEQYNSYVVSVLTVLHQDWLNGKEYKCKVSNKALPAPIEKTISKAKGQPREPQVYTLPPSRDELTKNQVSLTCLVKGFYPSDIAVEWESNGQPENNYKTTPPVLDSDGSFFKKLTVDKSRWQQGNVFSCSVLHEALHSHYTQKSLSLSPG | 17.2 | 50 | 75.7 | 132 | – | – | – | – |
| MX834 (other) chain 1: QTVVTQEPSFSVSPGGTVTLTCGLSSGSVSTAYFPSWYQQTPGQAPRTLIYGTNTRSSGVPDRFSGSILGNKAALTITGAQADDESDYYCVLYMGRGIVVFGGGTKLTVLGGSSGEIVLTQSPGTLSLSPGERATLSCRASQSVSSSYLAWYQQKPGQAPRLLIYSASSRATGIPDRFSGSGSGTDFTLTISRLEPEDFAVYFCQQYVGLTGWTFGQGTKVEIKGGGGSGGSGSGGGGSASGSGQMQLVQSGPEVKKPGTSVKVSCKASGFTFTSSAVQWVRQRQRLEWIGWIVVGSGNTNYAQKFQERVTITRDMSTSTAYMELSSLRSEDTAVYYCAAPNCSNVVCYDGFDIWGQGTMVTVSSGGSSGQVQLVESGGGVVQPGRSLRLSCAASGFTLSSYGMHWVRQAPGKGLEWVAVISYDGSNKYYVDSVKGRFTISRDNSKNTLYLQMNSLRAEDTAVYYCRWAYWELLPDYYYGMDVWGQGTTVTVSSASGGSGDKTHTCPPCPAPELLGGPSVFLFPPKPKDTLMISRTPEVTCVVVDVSHEDPEVKFNWYVDGVEVHNAKTKPREEQYNSYVVSVLTVLHQDWLNGKEYKCKVSNKALPAPIEKTISKAKGQPREPQVYTLPPCRDELTKNQVSLWCLVKGFYPSDIAVEWESNGQPENNYKTTPPVLDSDGSFFKKLTVDKSRWQQGNVFSCSVLHEALHSHYTQKSLSLSPG chain 2: QTVVTQEPSFSVSPGGTVTLTCGLSSGSVSTAYFPSWYQQTPGQAPRTLIYGTNTRSSGVPDRFSGSILGNKAALTITGAQADDESDYYCVLYMGRGIVVFGGGTKLTVLGGSSGEIVLTQSPGTLSLSPGERATLSCRASQSVSSSYLAWYQQKPGQAPRLLIYSASSRATGIPDRFSGSGSGTDFTLTISRLEPEDFAVYFCQQYVGLTGWTFGQGTKVEIKGGGGSGGSGSGGGGSASGSGQMQLVQSGPEVKKPGTSVKVSCKASGFTFTSSAVQWVRQRQRLEWIGWIVVGSGNTNYAQKFQERVTITRDMSTSTAYMELSSLRSEDTAVYYCAAPNCSNVVCYDGFDIWGQGTMVTVSSGGSSGQVQLVESGGGVVQPGRSLRLSCAASGFTLSSYGMHWVRQAPGKGLEWVAVISYDGSNKYYVDSVKGRFTISRDNSKNTLYLQMNSLRAEDTAVYYCRWAYWELLPDYYYGMDVWGQGTTVTVSSASGGSGDKTHTCPPCPAPELLGGPSVFLFPPKPKDTLMISRTPEVTCVVVDVSHEDPEVKFNWYVDGVEVHNAKTKPREEQYNSYVVSVLTVLHQDWLNGKEYKCKVSNKALPAPIEKTISKAKGQPREPQVYTLPPCRDELTKNQVSLWCLVKGFYPSDIAVEWESNGQPENNYKTTPPVLDSDGSFFKKLTVDKSRWQQGNVFSCSVLHEALHSHYTQKSLSLSPG | – | – | – | – | 1.4 | 6.58 | 1.6 | 3.92 |
| MX837 (other) chain 1: QTVVTQEPSFSVSPGGTVTLTCGLSSGSVSTAYFPSWYQQTPGQAPRTLIYGTNTRSSGVPDRFSGSILGNKAALTITGAQADDESDYYCVLYMGRGIVVFGGGTKLTVLGGSSGEIVLTQSPGTLSLSPGERATLSCRASQSVSSSYLAWYQQKPGQAPRLLIYSASSRATGIPDRFSGSGSGTDFTLTISRLEPEDFAVYFCQQYVGLTGWTFGQGTKVEIKGGGGSGGSGSGGGGSASGSGQMQLVQSGPEVKKPGTSVKVSCKASGFTFTSSAVQWVRQRQRLEWIGWIVVGSGNTNYAQKFQERVTITRDMSTSTAYMELSSLRSEDTAVYYCAAPNCSNVVCYDGFDIWGQGTMVTVSSGGSSGQVQLVESGGGVVQPGRSLRLSCAASGFTLSSYGMHWVRQAPGKGLEWVAVISYDGSNKYYVDSVKGRFTISRDNSKNTLYLQMNSLRAEDTAVYYCRWAYWELLPDYYYGMDVWGQGTTVTVSSASGGSGDKTHTCPPCPAPELLGGPSVFLFPPKPKDTLMISRTPEVTCVVVDVSHEDPEVKFNWYVDGVEVHNAKTKPREEQYNSYVVSVLTVLHQDWLNGKEYKCKVSNKALPAPIEKTISKAKGQPREPQVYTLPPCRDELTKNQVSLWCLVKGFYPSDIAVEWESNGQPENNYKTTPPVLDSDGSFFKKLTVDKSRWQQGNVFSCSVLHEALHSHYTQKSLSLSPG chain 2: DIQMTQSPSSVSASVGDRVIITCRASQGISSWLAWYQQKPGKAPKVLIYDASSLQSGVPSRFSGSGYGTDFTLTISSLQPEDSATYYCQQAKSFPITFGQGTRLEIKGGSSGEIVLTQSPGTLSLSPGERATLSCRASQSVSSSYLAWYQQKPGQAPRLLIYSASSRATGIPDRFSGSGSGTDFTLTISRLEPEDFAVYFCQQYVGLTGWTFGQGTKVEIKGGGGSGGSGSGGGGSASGSGQMQLVQSGPEVKKPGTSVKVSCKASGFTFTSSAVQWVRQRQRLEWIGWIVVGSGNTNYAQKFQERVTITRDMSTSTAYMELSSLRSEDTAVYYCAAPNCSNVVCYDGFDIWGQGTMVTVSSGGSSGQVQLVESGGGVVQPGRSLRLSCAASGFTFSSYAFHWVRQAPGKGLEWVAVISYDGSNQYYADSVKGRFTISRDNSKNTLYLQMNSLRADDTAVYYCARDLAIAVAGTWHYYNGMDVWGQGTTVTVSSASGGSGDKTHTCPPCPAPELLGGPSVFLFPPKPKDTLMISRTPEVTCVVVDVSHEDPEVKFNWYVDGVEVHNAKTKPREEQYNSYVVSVLTVLHQDWLNGKEYKCKVSNKALPAPIEKTISKAKGQPREPQVCTLPPSRDELTKNQVSLSCAVKGFYPSDIAVEWESNGQPENNYKTTPPVLDSDGSFFLVSKLTVDKSRWQQGNVFSCSVLHEALHSHYTQKSLSLSPG | – | – | – | – | 2.23 | 4.45 | 9.72 | 11.4 |
